The supplement of paper PMC9931576
Where a chain is given by its changes, count along the chain named. Human monoclonal antibodies against the spike receptor-binding domain (heavy:light variable regions). IC50 against pseudoviruses bearing the spike of naturally observed variants; lower = stronger; >10 µg/ml means not reached at the top dose. No active / inactive call. The stated detection limit is 0.0005 µg/ml; values near or below 0.001 µg/ml lie at the floor of the assay.

Assays:
Test in all cases: pseudovirus neutralization IC50; higher = weaker neutralization
[1] = target: SARS-CoV-2 Omicron BA.1 spike pseudovirus
Description: (§1)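 Single-round VSV luciferase pseudovirus mixed with antibody dilutions for 1 h and put on Huh-7 cells for about a day; IC50 from the dose curve.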

[2] = target: SARS-CoV-2 Omicron BA.2 spike pseudovirus
Description: as §1

[3] = target: SARS-CoV-2 Omicron BA.2.75 spike pseudovirus
Description: as §1

[4] = target: SARS-CoV-2 Omicron BA.5 spike pseudovirus
Description: as §1

[5] = target: SARS-CoV-2 Omicron BQ.1.1 spike pseudovirus
Description: as §1

[6] = target: SARS-CoV-2 Omicron XBB spike pseudovirus
Description: as §1

[7] = target: SARS-CoV-2 early D614G spike pseudovirus
Description: as §1

B1: BD58-0573 (protein)
chain 1: EVQLVESGGGLIQPGGSLRLSCAASGVTVSRNYMSWVRQAPGKGLEWVSLIYSGGSTFYADSVKGRFTISRDNSKNTLYLQMNSLRAEDTAVYYCARDRYSGMDVWGQGTTVTVSS
chain 2: DIQMTQSPSSLSASVGDRVTITCQASQDINNFLNWYQQKPGKAPKLLIYDASNLEAGVPSRFSGSGSGTDFTFTISSLQPEDIATYFCQQYDNLPYTFGQGTKLETK
pseudovirus neutralization IC50 [1]: 0.000615 µg/mL
pseudovirus neutralization IC50 [2]: 0.00104 µg/mL
pseudovirus neutralization IC50 [3]: 0.383 µg/mL
pseudovirus neutralization IC50 [4]: 0.00307 µg/mL
pseudovirus neutralization IC50 [5]: 0.869 µg/mL
pseudovirus neutralization IC50 [6]: 2.61 µg/mL
pseudovirus neutralization IC50 [7]: 0.12 µg/mL

B2: BD58-0577 (protein)
chain 1: QMQLQESGPGLVKPSQTLSLTCTVSGASISSANYYWNWIRQPAGKGLEWIGRIYIYASGSSNYSPSLKSRVSISVDTSKKQFSLKLSSVSAADTAVYYCATSPRDDFWRFDHWGHGTLVTVSS
chain 2: NFMLTQPHSVSGSPGKTLTISCTRSGGSIATNYVQWYQQRPGSSPTTVIYDNNQRPSGVPDRFSGSIDSSSNSASLTISGLKTEDEADYHCQSFALNNVIFGGGTKLTVL
pseudovirus neutralization IC50 [1]: > 10 µg/mL
pseudovirus neutralization IC50 [2]: > 10 µg/mL
pseudovirus neutralization IC50 [3]: > 10 µg/mL
pseudovirus neutralization IC50 [4]: > 10 µg/mL
pseudovirus neutralization IC50 [5]: > 10 µg/mL
pseudovirus neutralization IC50 [6]: > 10 µg/mL
pseudovirus neutralization IC50 [7]: > 10 µg/mL

B3: CV07-315 (protein)
chain 1: EVQLVESGGGLVQPGRSLRLSCAASGFTFDDYAMHWVRQAPGKGLEWVSGISWNSGSIGYADSVKGRFTISRDNAKNSLYLQMNSLRAEDTALYYCAKDFLWDLHPPRYYGMDVWGQGTTVTVSS
chain 2: QSVLTRPPSVSAAPGQKVTISCSGSSSNIGNNYVSWYQQLPGTAPKLLIYENNKRPSGIPDRFSGSKSGTSATLGITGLQTGDEADYYCGTWDSSLNGVFGGGTKLTVL
pseudovirus neutralization IC50 [1]: > 10 µg/mL
pseudovirus neutralization IC50 [2]: > 10 µg/mL
pseudovirus neutralization IC50 [3]: > 10 µg/mL
pseudovirus neutralization IC50 [4]: > 10 µg/mL
pseudovirus neutralization IC50 [5]: > 10 µg/mL
pseudovirus neutralization IC50 [6]: > 10 µg/mL
pseudovirus neutralization IC50 [7]: 0.408 µg/mL

B4: BD58-0580 (protein)
chain 1: QVQLQESGPGLVKPSETLSLTCTVSGGSISSYYWSWIRQPPGKGLEWIGYIYYTGNTNYNPSLKSRVTISVDTSKNQFSLMLNSVTAADTAVYYCARAAPPDSYYYYYYMDVWGKGTTVTVSS
chain 2: QSALTQPASVSGSPGQSITISCTGTSSDVGSYNLVSWYQQHPGTAPKLMIYEVTKRPSGVSDRFFGSKSGNTASLTIFGLQAEDEADYYCCSYVGSNTLVFGGGTKLTVL
pseudovirus neutralization IC50 [1]: > 10 µg/mL
pseudovirus neutralization IC50 [2]: > 10 µg/mL
pseudovirus neutralization IC50 [3]: > 10 µg/mL
pseudovirus neutralization IC50 [4]: > 10 µg/mL
pseudovirus neutralization IC50 [5]: > 10 µg/mL
pseudovirus neutralization IC50 [6]: > 10 µg/mL
pseudovirus neutralization IC50 [7]: > 10 µg/mL

B5: BD58-0584 (protein)
chain 1: QVQLLESGGGVVQPGKSLRLSCAASGFTFRTYGMHWVRQAPGKGLEWLALISYHGGNEYYADSVKGRITISRDNAKNTLYLQINSLRPEDTAVYYCAKGSYYYDSSGQYVDGFEYWGPGTLVIVSS
chain 2: DIQMTQSPSSLSASVGDRVTITCRASQSIGTYLNWFQQRPGKAPKLLIYGASSLQSGVPSTFSGGGSGTDFTLTISSLQPEDFATYYCQQSYSTPLTFGGGTKVEIK
pseudovirus neutralization IC50 [1]: > 10 µg/mL
pseudovirus neutralization IC50 [2]: > 10 µg/mL
pseudovirus neutralization IC50 [3]: > 10 µg/mL
pseudovirus neutralization IC50 [4]: > 10 µg/mL
pseudovirus neutralization IC50 [5]: > 10 µg/mL
pseudovirus neutralization IC50 [6]: > 10 µg/mL
pseudovirus neutralization IC50 [7]: > 10 µg/mL

B6: BD56-1180 (protein)
chain 1: EVQLVQSGAEVKKPGESLKISCKGSGYSFIIYWIGWVRQMPGQGLEYMGIIYPGDSDTRYSPSFQGQVTISADKSISTAYLQWSSLKASDTAIYYCARGGYYDTFDIWGQGTMVTVSS
chain 2: DIVMTQSPATLSVSPGERATLSCRASQSISSDLAWYQQKPGQAPRLLIYHASTRATGIPARFSGSGSGTEFTLTISSLQSEDSAVYYCQQYNNWPLFGGGTKVEIK
pseudovirus neutralization IC50 [1]: 0.000717 µg/mL
pseudovirus neutralization IC50 [2]: 0.0013 µg/mL
pseudovirus neutralization IC50 [3]: 0.00161 µg/mL
pseudovirus neutralization IC50 [4]: 0.000938 µg/mL
pseudovirus neutralization IC50 [5]: 1.98 µg/mL
pseudovirus neutralization IC50 [6]: 1.82 µg/mL
pseudovirus neutralization IC50 [7]: 1.9 µg/mL

B7: BD56-1211 (protein)
chain 1: QVRLVQSGAEVKKPGASVKVSCRASGYTFSNYYVHWVRQAPGQGLEWMGIINPSAGSITYAQKFQGRVTMTSDSSTSTVYLDLSSLRSEDTAVYYCARDIVLIPATSGLDVWGQGTTVTVSS
chain 2: EIVLTQSPATLSLSPGERATLSCRASQSISTYLAWYQQKPGQAPRLLIYDASNRATGIPARFSGSGSGTDFTLTISSLEPDDFAVYYCQQRSNWPRIFTFGPGTKVDIK
pseudovirus neutralization IC50 [1]: 1.25 µg/mL
pseudovirus neutralization IC50 [2]: > 10 µg/mL
pseudovirus neutralization IC50 [3]: > 10 µg/mL
pseudovirus neutralization IC50 [4]: > 10 µg/mL
pseudovirus neutralization IC50 [5]: > 10 µg/mL
pseudovirus neutralization IC50 [6]: > 10 µg/mL
pseudovirus neutralization IC50 [7]: > 10 µg/mL

B8: BD56-1222 (protein)
chain 1: EVQVVESGGRLVKPGGSLRLSCAASGFNFRTYNMNWLRQAPGKGLEWVSSIGATGSYRNYADSVRGRFTISRDNAKNSLYLQMNRLRADDTAVYFCARDSDWGGDILTGSSHIFDNWGQGTVVTVSS
chain 2: DIQMTQSPSSLSASVGDRVTITCRASQTISSSLNWYHQKPGRAPKLLIYGAISLQSGVPSRFSGSGSGTDFTLTISSLQLEDFATYYCQQSYSAPPTFGGGTKVEIE
pseudovirus neutralization IC50 [1]: > 10 µg/mL
pseudovirus neutralization IC50 [2]: > 10 µg/mL
pseudovirus neutralization IC50 [3]: > 10 µg/mL
pseudovirus neutralization IC50 [4]: > 10 µg/mL
pseudovirus neutralization IC50 [5]: > 10 µg/mL
pseudovirus neutralization IC50 [6]: > 10 µg/mL
pseudovirus neutralization IC50 [7]: > 10 µg/mL

B9: BD56-1225 (protein)
chain 1: QVQLVQSGAEVKKPGASVKVSCKASGYTFSMYYIHWVRQAPGQGLEWLGIINPDAGSTSYAQQFQGRVTMTRDTSTSAVYMELRNLRSEDSAVYYCARPAAGIPAARSAFDFWGQGTMVTVSS
chain 2: DIQMTQSPSTLSASVGDRVTITCRASQTISSWLAWYQQKPGKAPKLLIYKASTLESGVPSRFTGSGSGTEFSLTISSLQPDDFATYYCQQYNTYSWTFGQGTRVEIK
pseudovirus neutralization IC50 [1]: 3.85 µg/mL
pseudovirus neutralization IC50 [2]: 3.93 µg/mL
pseudovirus neutralization IC50 [3]: 3.1 µg/mL
pseudovirus neutralization IC50 [4]: 3.13 µg/mL
pseudovirus neutralization IC50 [5]: 3.21 µg/mL
pseudovirus neutralization IC50 [6]: 3.25 µg/mL
pseudovirus neutralization IC50 [7]: > 10 µg/mL

B10: BD56-1228 (protein)
chain 1: QVQLVQSGAEVKKPGASVKVSCKASGYTFTNYYMHWVRQAPGQGLEWMGIINPSAGSTTYAQRFQGRVTMTSDTSTGTVYMELSRLRSDDTAVYFCARDGAFLPALDAFDIWGQGTMVTVSS
chain 2: DIVLTQSPGTLSLSPGERATLSCRASESISRSYLAWYQQKVGQAPRLLIYAASSRATGIPDRYTGSGSGTDFTLTISRLEPEDFAVYYCQQYGRSFAYTFGQGTKLEIK
pseudovirus neutralization IC50 [1]: > 10 µg/mL
pseudovirus neutralization IC50 [2]: > 10 µg/mL
pseudovirus neutralization IC50 [3]: > 10 µg/mL
pseudovirus neutralization IC50 [4]: > 10 µg/mL
pseudovirus neutralization IC50 [5]: > 10 µg/mL
pseudovirus neutralization IC50 [6]: > 10 µg/mL
pseudovirus neutralization IC50 [7]: > 10 µg/mL

B11: BD56-1232 (protein)
chain 1: QVQLVQSGAEVRKPGASVKVSCRASGYAFTNYYIHWVRQAPGQGLEWMGMINPDAGSTSYAQKFQGRVTMTGDSSTSTVYMELSSLRSEDTAVYYCARDIVLIPAASGVDVWGQGTTVTVSS
chain 2: B7 chain 2 with I29V, T31S, Q38H, D81E
pseudovirus neutralization IC50 [1]: > 10 µg/mL
pseudovirus neutralization IC50 [2]: > 10 µg/mL
pseudovirus neutralization IC50 [3]: > 10 µg/mL
pseudovirus neutralization IC50 [4]: > 10 µg/mL
pseudovirus neutralization IC50 [5]: > 10 µg/mL
pseudovirus neutralization IC50 [6]: > 10 µg/mL
pseudovirus neutralization IC50 [7]: > 10 µg/mL

B12: BD56-1233 (protein)
chain 1: EVQLVESGGGLVQPGGSLRLSCAASGFSFSTYNMNWVRQAPGKGLEWVSYISSSSTTIYYADSVEGRFTISRDNAKKSLYLQMNSLTAEDAGVYYCARHSGRQSHYYYGMDVWGQGTTVTVSS
chain 2: DIQMTQSPSSLSASVGDRVTITCRASQSIYSYLNWYQQKPGKAPSLLIYGASSLQSGVPSRFSGSGSGTDFTLSISGLRREDFATYYCQQSFSTPPTFGQGTTVEVK
pseudovirus neutralization IC50 [1]: > 10 µg/mL
pseudovirus neutralization IC50 [2]: > 10 µg/mL
pseudovirus neutralization IC50 [3]: > 10 µg/mL
pseudovirus neutralization IC50 [4]: > 10 µg/mL
pseudovirus neutralization IC50 [5]: > 10 µg/mL
pseudovirus neutralization IC50 [6]: > 10 µg/mL
pseudovirus neutralization IC50 [7]: > 10 µg/mL
